A mixed list of measured activities; the numbers were collected in NIAID ChemDB.

Common to all: host cell toxicity; endpoint: CC50

Lines come from different laboratories, so protocols vary. CCn is the concentration with n% toxicity to the cells.

{"smiles": "C[C@@]1(O)[C@H](O)[C@@H](COP(=O)(O)OP(=O)(O)OP(=O)(O)O)O[C@H]1n1ccc2c(N)ncnc21", "cells": "MDBK cells", "result": ">50 µM"}
{"smiles": "CCOC(=O)C1=C(CN2CC(F)(F)[C@@H]3[C@H]2CON3C[C@@H](OC)C(C)(C)C(=O)O)NC(c2nccs2)=N[C@H]1c1ccc(F)c(F)c1Cl", "read by": "WST / absorbance", "cells": "HepG2.2.15", "result": "32.4 µM"}
{"smiles": "CS(=O)(=O)C1(c2cc(C(=O)NC34CC(c5nc(-c6ccc(Cl)cc6)no5)(C3)C4)ccn2)CC1", "read by": "absorbance", "cells": "Primary human hepatocytes", "result": "6.92 µM"}
{"smiles": "C[C@H](Nc1cc(=O)n(O)c2ncccc12)c1ccccc1", "cells": "HeLa", "result": "<100 µM"}
{"smiles": "Cc1ccc(-n2ncc3c(Nc4ccc(N5CCOCC5)cc4)ncnc32)c(C)c1", "cells": "HUH 9B", "result": "57 µM"}
{"smiles": "CC1(C)[C@@H](O)CC[C@]2(C)[C@H]3C(=O)C=C4[C@@H]5C[C@@](C)(C(=O)OCc6ccc(OC(F)(F)F)cc6)CC[C@]5(C)CC[C@@]4(C)[C@]3(C)CC[C@@H]12", "cells": "HepG2.2.15", "result": ">1130 µM"}
{"smiles": "CS(=O)(=O)C1(c2ccc(C(=O)NC34CC(c5ncc(-c6ccc(Cl)c(Cl)c6)s5)(C3)C4)o2)CC1", "read by": "absorbance", "cells": "Primary human hepatocytes", "result": "29.86 µM"}
{"smiles": "Cc1cc(C2CC2)n2nc(S(=O)(=O)Nc3c(C)ccc(Cl)c3C)nc2n1", "read by": "WST", "cells": "K562 (CRL-1573)", "result": "77 µg/mL"}
{"smiles": "CCOC(=O)C1=C(CN2CC(F)(F)[C@@H]3[C@H]2CON3C[C@H](F)CCC(C)(C)C(=O)O)NC(c2nccs2)=N[C@H]1c1cccc(F)c1C", "read by": "WST / absorbance", "cells": "HepG2.2.15", "result": "36.8 µM"}
{"smiles": "N#Cc1cccc(-c2cccc(-c3cc(=O)n(O)c4ncccc34)c2)c1", "cells": "HeLa", "result": "<100 µM"}
{"smiles": "CCCCN1CC[C@@H](N2CC(=O)N3[C@H](c4ccc5c(c4)OCO5)c4[nH]c5ccccc5c4C[C@@H]3C2=O)C1", "read by": "resazurin", "cells": "MRC-5 SV2", "result": "8 µM"}
{"smiles": "COc1ccc(Cl)cc1Nc1ncnc2c1cnn2-c1ccc(Cl)cc1", "cells": "HUH 9B", "result": ">31 µM"}
{"smiles": "O=C1[C@H]2Cc3c([nH]c4ccccc34)[C@@H](c3ccc4c(c3)OCO4)N2C(=O)CN1[C@@H]1CCN(CC2CCCC2)C1", "read by": "resazurin", "cells": "MRC-5 SV2", "result": "5.6 µM"}
{"smiles": "Cc1cc(=O)[nH]c2c1ccc1ncc(C(=O)O)c(C)c12", "cells": "CAKI-1", "result": "11 µg/mL"}
{"smiles": "c1ccc(-n2ncc3c(NCCc4c[nH]c5ccccc45)ncnc32)cc1", "cells": "HUH 9B", "result": "25 µM"}
{"smiles": "CN(Cc1ccccc1)c1cc(=O)n(O)c2ncccc12", "cells": "HeLa", "result": "<100 µM"}
{"smiles": "Cc1cc(C2CC2)n2nc(S(=O)(=O)Nc3c(C)cccc3C(C)C)nc2n1", "read by": "WST", "cells": "HEPG2 (HB-8065)", "result": ">128 µg/mL"}
{"smiles": "CC1(C)[C@@H](O)CC[C@]2(C)[C@H]3C(=O)C=C4[C@@H]5C[C@@](C)(C(=O)OCCCCCCO)CC[C@]5(C)CC[C@@]4(C)[C@]3(C)CC[C@@H]12", "cells": "HepG2.2.15", "result": "67.28 µM"}
{"smiles": "CNS(=O)(=O)c1cccc(-c2cc(=O)n(O)c3ncccc23)c1", "cells": "HeLa", "result": "<100 µM"}
{"smiles": "CCOC(=O)C1=C(CN2CC(F)(F)[C@@H]3[C@H]2CON3C[C@@H](OC)C(C)(C)C(=O)O)NC(c2nccs2)=N[C@H]1c1ccc(F)c(F)c1F", "read by": "WST / absorbance", "cells": "HepG2.2.15", "result": "41.7 µM"}
{"smiles": "CS(=O)(=O)C1(c2ccc(C(=O)NC34CC(c5csc(-c6ccc(Cl)cc6)n5)(C3)C4)o2)CC1", "read by": "absorbance", "cells": "Primary human hepatocytes", "result": "39.46 µM"}
{"smiles": "NC(=O)c1cccc(-c2cc(=O)n(O)c3ncccc23)c1", "cells": "HeLa", "result": "<100 µM"}
{"smiles": "CCOC(=O)C1=C(CN2CC(F)(F)[C@@H]3[C@H]2CON3C[C@@H](OC)C(C)(C)C(=O)O)NC(c2nccs2)=N[C@@H]1c1ccc(F)c(F)c1C", "read by": "WST / absorbance", "cells": "HepG2.2.15", "result": "30.6 µM"}
{"smiles": "CCCCCCCCCCOC(=O)[C@@]1(C)CC[C@]2(C)CC[C@]3(C)C(=CC(=O)[C@@H]4[C@@]5(C)CC[C@H](O)C(C)(C)[C@@H]5CC[C@]43C)[C@@H]2C1", "cells": "HepG2.2.15", "result": ">1030 µM"}
{"smiles": "O=C1[C@H]2Cc3c([nH]c4ccccc34)[C@@H](c3ccc4c(c3)OCO4)N2C(=O)CN1[C@@H]1CCN(CCOc2ccccc2)C1", "read by": "resazurin", "cells": "MRC-5 SV2", "result": "7.7 µM"}
{"smiles": "CC1(C)[C@@H](O)CC[C@]2(C)[C@H]3C(=O)C=C4[C@@H]5C[C@@](C)(C(=O)OCc6ccc(-n7cccn7)cc6)CC[C@]5(C)CC[C@@]4(C)[C@]3(C)CC[C@@H]12", "cells": "HepG2.2.15", "result": "1990 µM"}
{"smiles": "COC(=O)C1=C(CN2CC(F)(F)[C@@H]3[C@H]2CON3CC[C@](C)(O)C(=O)O)NC(c2nccs2)=N[C@H]1c1ccc(F)c(F)c1Cl", "read by": "WST / absorbance", "cells": "HepG2.2.15", "result": ">100 µM"}
{"smiles": "Cc1ccc(-n2ncc3c(Nc4ccc(OC(F)(F)F)cc4)ncnc32)c(C)c1", "cells": "HUH 9B", "result": "22 µM"}
{"smiles": "CCOC(=O)C1=C(CN2CC(F)(F)[C@@H]3[C@H]2CON3C[C@H](F)C(C)(C)C(=O)O)NC(c2nccs2)=N[C@H]1c1cccc(F)c1C", "read by": "WST / absorbance", "cells": "HepG2.2.15", "result": ">50 µM"}
{"smiles": "O=C1[C@H]2Cc3c([nH]c4ccccc34)[C@@H](c3ccc4c(c3)OCO4)N2C(=O)CN1[C@@H]1CCN(Cc2ccccn2)C1", "read by": "resazurin", "cells": "MRC-5 SV2 cells", "result": "52 µM"}
{"smiles": "CS(=O)(=O)C1(c2ccc(C(=O)NC34CC(c5ncc(-c6ccc(Cl)cc6)s5)(C3)C4)o2)CC1", "read by": "absorbance", "cells": "Primary human hepatocytes", "result": ">47.62 µM"}
{"smiles": "CC1(C)[C@@H](O)CC[C@]2(C)[C@H]3CC=C4[C@@H]5C[C@@](C)(C(=O)OCC(N)=O)CC[C@]5(C)CC[C@@]4(C)[C@]3(C)CC[C@@H]12", "cells": "HepG2.2.15", "result": "472 µM"}
{"smiles": "COC(=O)C1=C(CN2CC(F)(F)[C@@H]3[C@H]2CON3CC[C@@](C)(O)C(=O)O)NC(c2nccs2)=N[C@H]1c1ccc(F)c(F)c1Cl", "read by": "WST / absorbance", "cells": "HepG2.2.15", "result": ">100 µM"}
{"smiles": "COc1ccc(C[C@H](N)C(=O)N[C@H]2[C@@H](O)[C@H](n3cnc4c(N(C)C)ncnc43)O[C@@H]2CO)cc1", "read by": "WST", "cells": "K562 (CRL-1573)", "result": "0.39 µg/mL"}
{"smiles": "CCOC(=O)C1=C(CN2CC(F)(F)[C@H]3[C@@H]2CCN3C[C@@H](O)C(C)(C)C(=O)O)NC(c2nccs2)=N[C@@H]1c1cccc(F)c1F", "read by": "WST / absorbance", "cells": "HepG2.2.15", "result": ">25 µM"}
{"smiles": "CC1(C)[C@@H](O)CC[C@]2(C)[C@H]3C(=O)C=C4[C@@H]5C[C@@](C)(C(=O)OCCCCCCCCO)CC[C@]5(C)CC[C@@]4(C)[C@]3(C)CC[C@@H]12", "cells": "HepG2.2.15", "result": "157 µM"}
{"smiles": "COC(=O)C1=C(CN2CC(F)(F)[C@@H]3[C@H]2CON3C[C@@H](OC)C(C)(C)C(=O)O)NC(c2ncoc2C)=N[C@H]1c1ccc(F)cc1Cl", "read by": "WST / absorbance", "cells": "HepG2.2.15", "result": ">100 µM"}
{"smiles": "CC1(C)[C@@H](OC(=O)c2cc(=O)c3ccccc3o2)CC[C@]2(C)[C@H]3CC=C4[C@@H]5C[C@@](C)(C(=O)OCc6ccc(Br)cc6F)CC[C@]5(C)CC[C@@]4(C)[C@]3(C)CC[C@@H]12", "cells": "HepG2.2.15", "result": ">1080 µM"}